66 compounds from PubChem BioAssay AID624173 (National Center for Advancing Translational Sciences (NCATS), 2012) can be followed below.

Several values for one entry are separate records, joined by “and”; a condition that tells them apart may be missing. Equal entries are not always repeated. This is a selection; strong and weak results do not stand in their true shares. Activity calls are given as the source filed them. The call rests on the fitted dose curve; in most records, active means well fitted inhibition curve with a large enough effect; inconclusive means small, poorly fitted or top-dose-only effect; inactive means flat fitted curve, though single readings scatter.
On the % scale 0 is the no-effect control and ±100 the full control effect.

This assay has as its target pyruvate kinase (Trypanosoma brucei) (UniProt Q57TT1). Description: qHTS of Trypanosoma Brucei Inhibitors. Further: nearly all actives have a fitted effect of over 50% in size. The conditions noted are these: TbPYK enzyme, Kinase-Glo Plus ATP luminescence, 45 min; at 76.8 µM (top of the series) unless noted.
Regarding `CC(=O)Nc1ccc([As](=O)(O)O)cc1`, the activity, negative = inhibition was inactive: 0.536%.

With `CN(C)P(=O)(N(C)C)n1c(Nc2ccccc2)nnc1-c1ccccc1`, the activity, negative = inhibition was inactive: 6.95%.

For `O=P(Nc1nc2ccc(Cl)cc2s1)(c1ccccc1)c1ccccc1`, the activity, negative = inhibition is inactive: 0.548%.

Turning to `O=[N+]([O-])c1cccc(NC2=NCC(CBr)S2)c1` (stereo unspecified), the activity, negative = inhibition was inactive: -1.27%.

For `COC(=O)C1(C)COP(=O)(Nc2ccccc2)OC1` (stereo unspecified), the activity, negative = inhibition is inactive: -18.9%.

As for `O=C(O)CNc1ccc([As](=O)(O)O)cc1`, the activity, negative = inhibition was inactive: -7.26%.

Take `CC(C)(C)C(=O)NC(Sc1ccncn1)C(Cl)(Cl)Cl` (stereo unspecified): the activity, negative = inhibition is inactive: -15.3%.

Turning to `O=[N+]([O-])c1ncn(CCn2ncnc2[N+](=O)[O-])n1`, the activity, negative = inhibition was inactive: -0.319%.

In the case of `O=C(Nc1cc([As](=O)(O)O)ccc1O)c1ccccc1`, the activity, negative = inhibition is inactive: -3.96%.

For `O=P1(N(CCCl)CCCl)OCCCS1` (stereo unspecified), the activity, negative = inhibition was inactive: -3.01%.

As to `CN(C)C(=O)OCCc1n(C)cc[n+]1C`, the activity, negative = inhibition is inactive: 0.0792%.

As for `CC(C)=N/N=C(\N)N[N+](=O)[O-]`, the activity, negative = inhibition was inactive: -2.07%.

With `CC(C)c1nc(Nc2ccccc2)n(P(=O)(N(C)C)N(C)C)n1`, the activity, negative = inhibition was inactive: 1.03%.

Take `CC1CCN(C(=O)Oc2c(Cl)cc(Cl)c3cccnc23)CC1`: the activity, negative = inhibition is inactive: -6.31%.

As to `Nc1ccc([As](=O)(O)c2ccc(N)cc2)cc1`, the activity, negative = inhibition was inactive: 0.496%.

On to `CCN(/C(=N/P(=O)(N1CCOCC1)N1CCOCC1)N1CCOCC1)c1ccc(OC)cc1`, for which the activity, negative = inhibition was inactive: -0.223%.

On to `O=[N+]([O-])c1cccc2n[nH]nc12`, for which the activity, negative = inhibition was inactive: -1.06%.

As for `CC(=O)N1C2C3N(C(C)=O)C1C1N(C(C)=O)C(C(N1C(C)=O)N3C(C)=O)N2C(C)=O`, the activity, negative = inhibition is inactive: 7.6%.

For `CCc1nc2c(n1)c1c(non1O)c1c2no[n+]1[O-]`, the activity, negative = inhibition is inactive: -0.987%.

Take `O=[N+]([O-])c1cc([N+](=O)[O-])c(CCNc2ccccc2)c([N+](=O)[O-])c1`: the activity, negative = inhibition is inactive: -4.88%.

Regarding `Cc1ccc(NP(=O)(Oc2ccccc2)Oc2ccccc2)nc1`, the activity, negative = inhibition was inactive: 6.54%.

On to `COc1ccc(C2=NCC(CBr)S2)cc1` (stereo unspecified), for which the activity, negative = inhibition was inactive: 2.49%.

Consider `c1nnnn1CCn1cnnn1`, for which the activity, negative = inhibition was inactive: 0.0258%.

Take `CC(C)C(=O)NC(Sc1ccccc1)C(Cl)(Cl)Cl` (stereo unspecified): the activity, negative = inhibition was inactive: 2.37%.

Turning to `O=P(Nc1nccs1)(c1ccccc1)c1ccccc1`, the activity, negative = inhibition is inactive: 10.4%.

For `Nc1ccc([As](=O)(O)c2ccc([N+](=O)[O-])cc2)cc1`, the activity, negative = inhibition is inactive: -4.04%.

Take `C(Cc1nn[nH]n1)Cc1nn[nH]n1`: the activity, negative = inhibition is inactive: -2.37%.

As to `O=C(OC1CN2CCC1CC2)c1cccc(Cl)c1` (stereo unspecified), the activity, negative = inhibition is inactive: 4.3%.

For `O=[N+]([O-])c1ccc(O)c(/C=N/Nc2ccc([N+](=O)[O-])cc2[N+](=O)[O-])c1`, the activity, negative = inhibition is inactive: 2.39%.

Regarding `CC(=O)NC(SC(=S)N(C)C)C(Cl)(Cl)Cl` (stereo unspecified), the activity, negative = inhibition is inactive: -13.9%.

`O=[N+]([O-])c1ncn(CCn2cnc([N+](=O)[O-])n2)n1`: the activity, negative = inhibition is inactive: 0.518%.

Take `O=[As](O)(c1ccccc1)c1ccc(O)cc1`: the activity, negative = inhibition is inactive: 4.72%.

With `C[C@H]1OP(=O)(Oc2ccccc2)[C@H](O)[C@H](O)[C@H]1N=[N+]=[N-]` (stereo partly specified), the activity, negative = inhibition is inactive: -3.84%.

Take `O=P(Nc1nc2ccccc2s1)(c1ccccc1)c1ccccc1`: the activity, negative = inhibition was inactive: -9.13%.

Take `CN(C(=O)Cc1ccccc1)[C@H]1CC[C@@]2(CCCO2)C[C@@H]1N1CCCC1`: the activity, negative = inhibition was inactive: 5.33%.

Consider `Cc1cc([N+](=O)[O-])cc([N+](=O)[O-])c1O`, for which the activity, negative = inhibition was inactive: 5.16% [at 157 µM].

Regarding `Nc1ccc(CCCCOc2ccccc2)cc1`, the activity, negative = inhibition was inactive: 5.3%.

In the case of `COc1ccc(N)c([N+](=O)[O-])c1[N+](=O)[O-]`, the activity, negative = inhibition is inactive: 0.489%.

For the compound `O=P(Nc1ccccn1)(c1ccc(Br)cc1)c1ccc(Br)cc1`, the activity, negative = inhibition is inactive: -1.04%.

With `CN(C)C1(CNC(=O)c2ccc(Cl)c(S(N)(=O)=O)c2)CCCCC1`, the activity, negative = inhibition was inactive: 0.842%.

For `CN(C)C(=O)Oc1noc2ccccc12`, the activity, negative = inhibition is inactive: -19.3%.

Regarding `O=c1c2cc([N+](=O)[O-])ccc2[nH]c2c([N+](=O)[O-])cc([N+](=O)[O-])cc12`, the activity, negative = inhibition was inactive: 1.38%.

Consider `Cc1ccccc1OP(=O)(Nc1ccccn1)Oc1ccccc1C`, for which the activity, negative = inhibition is inactive: -18.4%.

Take `CC(NC(=O)COC(=O)C(O)(c1ccccc1)c1ccccc1)c1ccccc1` (stereo unspecified): the activity, negative = inhibition is inactive: -7.97%.

With `CC(=O)NC(SC(=S)N(CC(C)C)CC(C)C)C(Cl)(Cl)Cl` (stereo unspecified), the activity, negative = inhibition was inactive: -12.8%.

As to `Cc1ccc(OP(=O)(Nc2ccccn2)Oc2ccc(C)cc2)cc1`, the activity, negative = inhibition is inactive: 1.05%.

For the compound `COC(=O)c1cc2c(s1)N=C(c1ccccc1)N(C)P2(=O)N1CCOCC1` (stereo unspecified), the activity, negative = inhibition was inactive: -5.65%.

In the case of `CCC(=O)N1C2C3N(C(=O)CC)C1C1N(C(=O)CC)C(C(N1C(=O)CC)N3C(=O)CC)N2C(=O)CC`, the activity, negative = inhibition is inactive: -3.02%.

With `O=C(OC1CN2CCC1CC2)c1ccccc1` (stereo unspecified), the activity, negative = inhibition was inactive: 0% and inactive: -0.174%.

On to `O=P1(N(CCCl)CCCl)OCCC2CCCCN21` (stereo unspecified), for which the activity, negative = inhibition was inactive: 2.98%.

As for `CCNC(=S)/N=C(\N)N[N+](=O)[O-]`, the activity, negative = inhibition is inactive: 1.91%.

On to `O=C(NC1CCS(=O)(=O)C1)NP(=S)(Oc1ccccc1)Oc1ccccc1` (stereo unspecified), for which the activity, negative = inhibition is inactive: -0.988%.

In the case of `Cc1ccc(NP(=O)(Oc2cccc(C)c2)Oc2cccc(C)c2)nc1`, the activity, negative = inhibition was inactive: 5.36%.

On to `c1ccc(-c2nn[nH]n2)c(-c2nn[nH]n2)c1`, for which the activity, negative = inhibition was inactive: -7.28%.

As to `CC(=O)Nc1ccc(Oc2c([N+](=O)[O-])cc([N+](=O)[O-])cc2[N+](=O)[O-])cc1`, the activity, negative = inhibition is inactive: -0.743%.

`CC(=O)Nc1ccc([As](=O)(O)O)c(O)c1`: the activity, negative = inhibition is inactive: -0.986%.

Turning to `COC(=O)C1(C)COP(=O)(NCc2ccccc2)OC1` (stereo unspecified), the activity, negative = inhibition was inactive: -22.7%.

Turning to `N#C/C(=C\c1ccc(N(CCBr)CCBr)cc1)C(N)=O`, the activity, negative = inhibition was inactive: -4.01%.

As to `CC(=O)c1ccc(N2CC2c2ccncc2)cc1` (stereo unspecified), the activity, negative = inhibition is inactive: 1.45%.

In the case of `C[C@@H]1C=CCP(=O)(Oc2ccccc2)O1` (stereo partly specified), the activity, negative = inhibition was inactive: 1.94%.

On to `C[C@H]1OP(=O)(Oc2ccccc2)C[C@@H]2O[C@@H]21` (stereo partly specified), for which the activity, negative = inhibition is inactive: 1.73%.

On to `Cc1ccccc1CN(C)C(=O)COC(=O)C(O)(c1ccccc1)c1ccccc1`, for which the activity, negative = inhibition was inactive: 0.603%.

Take `CCc1cc(O)c([N+](=O)[O-])c(C)c1[N+](=O)[O-]`: the activity, negative = inhibition was inactive: -0.457%.

Take `CC(C)(C)C(=O)NC(Sc1ccccc1)C(Cl)(Cl)Cl` (stereo unspecified): the activity, negative = inhibition is inactive: -1.12%.

For the compound `CCOc1ccc(C2=NCC(CBr)S2)cc1` (stereo unspecified), the activity, negative = inhibition was inactive: 2.21%.

On to `O=P1(Nc2nc3ccc(Cl)cc3s2)COc2ccccc2O1` (stereo unspecified), for which the activity, negative = inhibition was inactive: 0.542%.
